Results of unrelated studies side by side (data: NIAID ChemDB).

All rows: tests in culture; species: Mycobacterium tuberculosis

MIC50, MIC90 and the like: level of inhibition, or share of isolates inhibited. An empty or dashed field is not shown. Inhibition is in % at the dose shown (toxicity tests: loss of growth or viability). MIC bound comes from a single tested concentration. Lines come from different laboratories, so protocols vary.

structure	strain or isolate	mutations	method	conditions	endpoint	dose	value
C[C@H](N)C(=O)N[C@@H](CB(O)O)Cc1ccccc1	H37Rv		agar		MIC		≤500 µg/mL
CCN(CC)CCCC(C)Nc1cc(/C=C/c2ccc(Cl)cc2)nc2ccc(N(C)C)cc12	H37Rv		resazurin		inhibition	6.25 µg/mL	99%
CC[C@@H](C)[C@H](NC(=O)OCc1ccccc1)c1cnc(-c2ccccc2)[nH]1	My 331/88			14 d	MIC		32 µM
CC1(C)C2CC3OB(C[C@@H](Cc4ccccc4)NC(=O)[C@H](Cc4ccccc4)NC(=O)[C@@H](N)Cc4ccccc4)O[C@]3(C)C1C2	H37Rv				MIC		≤50 µg/mL
COc1ccc2nc(NCCNCCO)cc(NCCNCCO)c2c1.O=C(O)/C=C\C(=O)O.O=C(O)/C=C\C(=O)O.O=C(O)/C=C\C(=O)O	H37Rv		BACTEC		MIC bound		>12.5 µg/mL
CCc1nc2ccc(OC)cc2n1CCCSc1nnc(-c2ccc(Cl)cc2)o1	H37Rv		turbidity / fluorescence		MIC99		2.5 µM
C[C@@H](NC(=O)OCc1ccccc1)c1cnc(-c2ccc([N+](=O)[O-])cc2)[nH]1	My 331/88			21 d	MIC		>125 µM
C[C@@H](B1OC2CC3CC(C3(C)C)[C@@]2(C)O1)[C@@H](Cc1ccccc1)NC(=O)C(N)Cc1ccccc1	H37Rv		agar		MIC		≤50 µg/mL
COc1ccc(=NC(C)=O)c2c(O)c3c(=O)c4[nH]c5c(OC)ccc(=NC(C)=O)c5c(O)c4c(=O)c3[nH]c12	H37Rv		BACTEC		MIC bound		>12.5 µg/mL
Oc1cc(Cl)ccc1Oc1ccc(-c2cc(-c3ccccc3)on2)cc1Cl	H37Rv		MTT		MIC		>100 µg/mL
CCCCc1ncc(C(N)=S)nc1SC	H37Rv				MIC		>12.5 µg/mL
CO[C@H]1/C=C/O[C@@]2(C)Oc3c(C)c(O)c4c(O)c(c(/C=N/N5CCN(C)CC5)c(O)c4c3C2=O)NC(=O)/C(C)=C\C=C\[C@H](C)[C@H](O)[C@@H](C)[C@@H](O)[C@@H](C)[C@H](OC(C)=O)[C@@H]1C	22 isolates (rifampicin isoniazid-susceptible)				MIC50		≤0.03 µg/mL
CCCc1ncc(C(N)=S)nc1SC	H37Rv				inhibition	12.5 µg/mL	<90%
Cc1cc(C(=O)NCc2ccc(Oc3ccc(Cl)cc3Cl)c(O)c2)no1	mc4914	InhA overexpression	MTT		MIC		>80 µg/mL
Cc1nn(-c2ccccc2)c2c1C(c1ccccc1Cl)C(C#N)=C(N)O2	H37Rv				inhibition	62.5 µg/mL	69%
O=C(N[C@@H](Cc1ccccc1)c1cnc(-c2ccccc2)[nH]1)OCc1ccccc1	My 331/88			21 d	MIC		>250 µM
Nc1ncnc2c1ncn2[C@@H]1O[C@H](COP(=O)(O)O)[C@@H](O)[C@H]1O	H37Rv		BACTEC		inhibition	12.5 µg/mL	-14%
O=C(O)c1c2n(c3cc(N4CCN(C(c5ccccc5)c5ccc(Cl)cc5)CC4)c([N+](=O)[O-])cc3c1=O)CS2	H37Rv		agar		MIC		11.1 µM
C[C@H](N)C(=O)N[C@@H](CB1OC2CC3CC(C3(C)C)[C@@]2(C)O1)Cc1ccccc1	H37Rv		agar		MIC		≤500 µg/mL
C=C1C(=O)OC(CCCCC)C1C(=O)O	H37Rv		BACTEC		inhibition	12.5 µg/mL	8%
Oc1cc(CNC2CCCCC2)ccc1Oc1ccc(Cl)cc1Cl	H36Rv		MTT		MIC		6.25 µg/mL
Cc1cc2oc(=O)c(C(=O)/C=C/c3ccc(O)cc3O)c(O)c2cc1C	H37Rv		agar		MIC90		>6.25 µg/mL
CCc1nc2ccc(C)cc2n1CCCCNc1cccc(Cl)c1	H37Rv		turbidity / fluorescence		MIC99		2.1 µM
COc1cccc(C2CC(c3c(O)c4ccccc4oc3=O)=NN2c2ccccc2)c1O	H37Rv		agar		MIC90		>6.25 µg/mL
CCC1Cn2cc([N+](=O)[O-])nc2O1	H37Rv				MIC		0.06 µg/mL
Cc1ccc(C2C(C#N)=C(N)Oc3c2c(C)nn3-c2ccccc2)cc1	H37Rv				inhibition	62.5 µg/mL	97%
CSc1nc(C(N)=S)cnc1C(C)(C)C	H37Rv				MIC		>6.25 µg/mL
CCc1nc2ccc(C)cc2n1CCCSc1ccc(OC)cc1	H37Rv	Rv1339 V90M	turbidity / fluorescence		MIC90		6.8 µM
CC1(C)C2CC3OB(C[C@@H](CCc4ccccc4)NC(=O)[C@@H](N)CCCCN)O[C@]3(C)C1C2	H37Rv		agar		MIC		≤500 µg/mL
CC[C@@H](C)[C@H](NC(=O)OCc1ccccc1)c1cnc(-c2ccc([N+](=O)[O-])cc2)[nH]1	My 331/88			21 d	MIC		32 µM
CCC1CC2CC3c4[nH]c5ccc(O)cc5c4CCN(C2)C13.Cl	H37Rv		BACTEC		inhibition	12.5 µg/mL	-20%
O=C(c1ccccc1)c1ccc(Oc2ccc(Cl)cc2Cl)c(O)c1	H37Rv		MTT		MIC		100 µg/mL
CC1(c2ccc(Cl)s2)C(=O)N(Cl)C(=O)N1Cl	H37Rv		BACTEC		inhibition	12.5 µg/mL	0%
CO[C@H]1[C@@H](O)[C@H](n2ccc(=O)[nH]c2=O)O[C@@H]1[C@@H](O[C@H]1OC(C(=O)Nc2ccc(F)c(F)c2)=C[C@H](O)[C@@H]1O)C(N)=O	11 isolates (MDR)				MIC90		32 µg/mL
COC(=O)[C@@H](NC(=O)[C@H](CO)N1C(=O)c2ccccc2C1=O)c1ccccc1	H37Rv		resazurin		inhibition	6.25 µg/mL	0%
CN[C@@H]1[C@H](O[C@H]2[C@H](O[C@H]3[C@H](O)[C@@H](O)[C@H](N=C(N)N)[C@@H](O)[C@@H]3N=C(N)N)O[C@@H](C)[C@]2(O)C=O)O[C@@H](CO)[C@H](O)[C@H]1O	H37Rv		visual reading		MIC90		1.4 µM
O=C(O)c1c2n(c3cc(N4CCC(N5CCCCC5)CC4)c([N+](=O)[O-])cc3c1=O)CS2	H37Rv		agar		MIC		1.75 µM
CC(C)Cc1ncc(C(N)=O)nc1Sc1ccccc1	H37Rv				MIC		>12.5 µg/mL
C[C@@H](NC(=O)[C@@H](N)CCCCN)[C@@H](Cc1ccccc1)B1OC2CC3CC(C3(C)C)[C@@]2(C)O1	H37Rv				MIC		≤5 µg/mL
CC(C)N1CCN(c2ccc(OC[C@@H]3CO[C@@](Cn4cncn4)(c4ccc(Cl)cc4Cl)O3)cc2)CC1	H37Rv		resazurin		inhibition	6.25 µg/mL	42%
CCCCc1cc(-c2ccc(Oc3ccc(Cl)cc3O)c(Cl)c2)no1	H37Rv		MTT		MIC		>100 µg/mL
O=C(O)c1c2n(c3cc(N4CCN(Cc5ccc6c(c5)OCO6)CC4)c(F)cc3c1=O)CS2	H37Rv		agar		MIC		1.66 µM
O=C(O)CCC(=O)NC1C(NNC(=O)c2cccnc2)OC(CO)C(O)C1O	H37Rv		BACTEC		MIC		≥12.5 µg/mL
CCCCSc1nc(C(N)=O)cnc1CCCC	H37Rv				MIC		>12.5 µg/mL
CC1=C2c3ccccc3N(S(=O)(=O)c3ccccc3)[C@H]2C(C(=O)N2C3CC4CC[C@@]3(CS2(=O)=O)C4(C)C)CC1	H37Rv		BACTEC		MIC bound		>12.5 µg/mL
CSc1nc(C(N)=O)cnc1CC(C)C	H37Rv				inhibition	12.5 µg/mL	<90%
Cc1nn(-c2ccccc2)c2c1C(c1cccc(Cl)c1)c1c(nc(=O)[nH]c1N)O2	H37Rv				inhibition	62.5 µg/mL	73%
CCc1nc2ccc(C)cc2n1CCCNc1ccc(Br)c(C)c1	H37Rv	WT	turbidity / fluorescence		MIC90		0.66 µM
O=C(/C=C/c1ccc(O)cc1O)c1c(O)c2ccccc2oc1=O	H37Rv		agar		MIC90		>6.25 µg/mL
Fc1ccc(NC(=S)S)cc1	H37Rv		BACTEC		MIC bound		>12.5 µg/mL
CC(=O)Nc1ccc(/C=N/NC(N)=S)cc1F	H37Rv	Rifampicin-resistant	resazurin		MIC90		<0.1 µg/mL
CC[C@@H](CO)NCCN[C@@H](CC)CO	H37Rv	EJMCh6C MmpL3  (G253E)	visual reading / absorbance		MIC90		7.7 µM
CCc1nc2ccc(C)cc2n1CCCNc1ccc(OC)cc1	H37Rv		turbidity / fluorescence		MIC99		0.35 µM
CCN(CC)c1ccc2cc3ccc(=[N+](CC)CC)cc-3oc2c1.CCN(CC)c1ccc2cc3ccc(=[N+](CC)CC)cc-3oc2c1.[Cl-].[Cl-].[Cl-].[Cl-].[Cl][Fe+][Cl].[Cl][Fe+][Cl]	H37Rv		BACTEC		MIC bound		>12.5 µg/mL
O=C(O)c1c2n(c3cc(N4CCSCC4)c(F)cc3c1=O)CS2	H37Rv		agar		MIC		4.43 µM
C=C1C(=O)N[C@@H](CC(C)C)C(=O)N[C@H](CC(C)C)C(=O)N[C@H](C(=O)O)[C@H](C)C(=O)N[C@H](CCCN=C(N)N)C(=O)N[C@@H](/C=C/C(C)=C/[C@H](C)[C@H](Cc2ccccc2)OC)[C@@H](C)C(=O)N[C@@H](C(=O)O)CCC(=O)N1C		Rifampicin-resistant	resazurin		MIC		13.2 µM
O=C(/C=C/c1ccccn1)c1c(O)c2ccccc2oc1=O	H37Rv		agar		MIC90		>6.25 µg/mL
CCCc1ncc(C(N)=S)nc1SCC	H37Rv				inhibition	12.5 µg/mL	<90%
COc1ccc(N2CN(C)CSC2=S)cc1	H37Rv		BACTEC		inhibition	12.5 µg/mL	57%
O=c1oc2ccccc2c(O)c1C1=NN(c2ccccc2)C(c2ccc(C(F)(F)F)cc2)C1	INHR-MTB	Isoniazid-resistant	agar		MIC90		>6.25 µg/mL
CCCCc1ncc(C(N)=O)nc1SCC	H37Rv				inhibition	12.5 µg/mL	<90%
Cc1cc2oc(=O)c(C3=NNC(c4ccc(Cl)cc4Cl)C3)c(O)c2cc1C	INHR-MTB	Isoniazid-resistant	agar		MIC90		>6.25 µg/mL
CCCC/C(C)=N/NC(=S)SC	INH-r				MIC		6.4 µg/mL
CCc1nc2ccc(C)cc2n1CCCNc1ccc(C)cc1C	H37Rv		turbidity / fluorescence		MIC99		0.07 µM
O=C(OCc1ccccc1)N1CCC[C@H]1c1cnc(-c2ccc([N+](=O)[O-])cc2)[nH]1	My 331/88			14 d	MIC		32 µM
O=[N+]([O-])c1cc2c(ccc3cc(Br)ccc32)o1	H37Rv		resazurin		inhibition	6.25 µg/mL	3%
CC(C)(C)OC(=O)NC1C2CN(c3cc4c(cc3F)c(=O)c(C(=O)O)c3n4CS3)CC21	H37Rv		agar		MIC		0.87 µM
Cc1nn(-c2ccccc2)c2c1C(c1ccccc1Cl)c1c(nc(=S)[nH]c1N)O2	H37Rv				inhibition	62.5 µg/mL	57%
Cc1cc2nc(CCC3CCCCC3)[nH]c2cc1C	H37Rv	4/3 MmpL3 (V195A)	visual reading / absorbance		MIC90		2.9 µM
COc1nc(N)c(NC2OC[C@@H](O)[C@@H](O)[C@@H]2O)c(=O)n1C	H37Rv		resazurin		inhibition	6.25 µg/mL	7%
CC1CN(c2cc3c(cc2[N+](=O)[O-])c(=O)c(C(=O)O)c2n3CS2)CC(C)O1	H37Rv		agar		MIC		3.99 µM
Cc1nn(-c2ccccc2)c2c1C(c1cccc([N+](=O)[O-])c1)c1c(nc(=O)[nH]c1N)O2	H37Rv				inhibition	62.5 µg/mL	98%
CC(C)(C)NC(=O)C1c2ccccc2CCN1c1cc2c(cc1[N+](=O)[O-])c(=O)c(C(=O)O)c1n2CS1	H37Rv		agar		MIC		3.07 µM
CC(N=c1cc2n(-c3ccc(Cl)cc3)c3ccccc3nc-2cc1Nc1ccc(Cl)cc1)c1ccccc1	KM-R				MIC		0.2 µg/mL
Cc1nn(-c2ccccc2)c2c1C(c1cccc(Br)c1)C(C#N)=C(N)O2	H37Rv				inhibition	62.5 µg/mL	6%
CCOC(=O)c1cc(-c2ccc3ccccc3n2)c(O)c2cc3ccccc3nc12	H37Rv		BACTEC		inhibition	12.5 µg/mL	-74%
O=C(/C=C/c1ccc(Cl)cc1Cl)c1c(O)c2ccccc2oc1=O	INHR-MTB	Isoniazid-resistant	agar		MIC90		>6.25 µg/mL
Nc1ccc(S(=O)(=O)Nc2cc(F)cc(F)c2)cc1	H37Rv		BACTEC		inhibition	128 µg/mL	97%
CCCCSc1nc(C(N)=S)cnc1CCC	H37Rv				inhibition	12.5 µg/mL	<90%

The last 8 rows once more:

structure,strain or isolate,mutations,method,conditions,endpoint,dose,value
Cc1nn(-c2ccccc2)c2c1C(c1cccc([N+](=O)[O-])c1)c1c(nc(=O)[nH]c1N)O2,H37Rv,,,,inhibition,62.5 µg/mL,98%
CC(C)(C)NC(=O)C1c2ccccc2CCN1c1cc2c(cc1[N+](=O)[O-])c(=O)c(C(=O)O)c1n2CS1,H37Rv,,agar,,MIC,,3.07 µM
CC(N=c1cc2n(-c3ccc(Cl)cc3)c3ccccc3nc-2cc1Nc1ccc(Cl)cc1)c1ccccc1,KM-R,,,,MIC,,0.2 µg/mL
Cc1nn(-c2ccccc2)c2c1C(c1cccc(Br)c1)C(C#N)=C(N)O2,H37Rv,,,,inhibition,62.5 µg/mL,6%
CCOC(=O)c1cc(-c2ccc3ccccc3n2)c(O)c2cc3ccccc3nc12,H37Rv,,BACTEC,,inhibition,12.5 µg/mL,-74%
O=C(/C=C/c1ccc(Cl)cc1Cl)c1c(O)c2ccccc2oc1=O,INHR-MTB,Isoniazid-resistant,agar,,MIC90,,>6.25 µg/mL
Nc1ccc(S(=O)(=O)Nc2cc(F)cc(F)c2)cc1,H37Rv,,BACTEC,,inhibition,128 µg/mL,97%
CCCCSc1nc(C(N)=S)cnc1CCC,H37Rv,,,,inhibition,12.5 µg/mL,<90%